A mixed list of measured activities; the numbers were collected in NIAID ChemDB.

Common to all: growth or infection tests; agent: Plasmodium falciparum; measure: EC50

Conditions beyond the fields shown may differ between rows. ECn is the concentration giving n% inhibition of infection, replication or growth. Blank or dashed fields: not listed here.

structure	method	changes	strain	value
NC1=Nc2ccc(Cl)cc2C1(O)c1ccc(S(N)(=O)=O)cc1			3D7	>5 µM
N=C(N)c1cccc(OCCCCOc2cccc(C(=N)N)c2)c1	hypoxanthine uptake		W2	0.051 µM
Fc1ccc(CC[C@@H]2C[C@@H]3CC[C@@H]4C[C@H](CCc5ccc(F)cc5)NC(=N2)N43)cc1	LDH		W2	7.33 µM
O=C(/C=C/c1ccc(O)cc1)O[C@@H]1C2C=CO[C@H](O[C@@H]3O[C@@H](CO)[C@@H](O)[C@@H](O)[C@@H]3O)C2[C@]2(CO)O[C@H]12	hypoxanthine uptake / radiometric		W2 Mef	1.02 µM
COCCn1cc(-c2ccnc(N)n2)c2cc(Br)ccc21	LDH		D6	>14.43 µM
CCN(CC)CCCC(C)Nc1ccnc2cc(Cl)ccc12	broth dilution / absorbance		D6	0.015 µM
c1cc(C2=NCCN2)ccc1OCCCOc1ccc(C2=NCCN2)cc1	hypoxanthine uptake		W2	0.124 µM
CCN1C(=NCc2cccc(Cl)c2)N[C@@H](c2cccc(C(F)(F)F)c2)C(C(=O)OC)=C1C	SYBR Green / fluorescence		7G8	9.8 µM
COc1cc2c(cc1/C=C/C(=O)c1ccc(Br)cc1)C1CC[C@@]3(C)C(CC[C@@H]3O)C1CC2	LDH		NF54	30.56 µM
Cc1c(O)c2ccccc2c2c1sc(NCCCN(C)C)[n+]2C	hypoxanthine uptake		Dd2	0.25 µM
Cc1cccc(CCC2CC3CCC4CC(C)NC(=N2)N34)c1	LDH		D6	9.39 µM
Cc1[nH]nc2c1C(c1cc(Cl)cc(-c3ccc(-c4nn[nH]n4)cc3)c1)(C1CCC1)C(C#N)=C(N)O2	radiometric		NF54	2.14 µM
COC(=O)C1=C(C)N(Cc2ccc(C(F)(F)F)cc2)C(=NCc2cccc(C(F)(F)F)c2)NC1c1ccccc1	SYBR Green / fluorescence		7G8	5.4 µM
Clc1ccc2c(NCCCCN3CCN(C(c4ccccc4)c4ccccc4)CC3)ccnc2c1	SYBR Green / fluorescence		D6	0.0013 µM
CCN(CC)CCN1C(=O)c2ccccc2NC1c1ccc(OC)c(COc2ccc(NC(C)=O)cc2)c1	luciferase		3D7	>10 µM
O=c1cc(CNCCNc2ccnc3cc(Cl)ccc23)n(C2CC2)cc1O	radiometric		3D7	0.23 µM
N=C(N)c1ccc(OCCCOc2ccc(C(=N)N)cc2N)c(N)c1	hypoxanthine uptake		D6	0.111 µM
O=C(/C=C/C=C/c1ccc2c(c1)OCO2)c1ccc(Cl)c(Cl)c1	SYBR Green / fluorescence		INDO	100 µM
COc1ccc([C@]23Cc4cc(C#N)ccc4[C@@H](O2)c2c(cc(-c4ccccc4)oc2=O)O3)cc1	SYBR Green / fluorescence		7G8 GB4	1.7 µM
Clc1ccc2c(NCCCNc3nc(Nc4ccccc4)nc(N4CCOCC4)n3)ccnc2c1			D6	0.44 µM
CC1CC2CCCC3CC(CCc4cccc(Cl)c4)N=C(N1)N32	LDH		D6	2.41 µM
O=C(/C=C/C=C/c1ccc2c(c1)OCO2)c1ccc(Br)cc1	SYBR Green / fluorescence		3D7	50 µM
CCCCN1C(=O)c2ccccc2NC1c1ccc(Cl)cc1	luciferase		3D7	>20 µM
Nc1nccc(-c2cn(Cc3ccc(Cl)s3)c3ccccc23)n1	LDH		W2	>14.49 µM
COC(=O)C1=C(C(=O)OC)C2N(Cc3ccccc3)c3ccccc3[C@@]23C[C@@H](C(=O)OC)N(S(=O)(=O)c2ccc(C(F)(F)F)cc2)C3=N1	SYBR Green / fluorescence		CP250	1.5 µM
CCN(CC)CCCNC(=O)c1ccc(-c2cc(C#N)cc(C3(C(C)C)C(C#N)=C(N)Oc4n[nH]c(C)c43)c2)s1	radiometric		K1	1.64 µM
COc1ccc(/C=C/C(=O)c2ccc(Cl)cc2)c(OC)c1OC	SYBR Green / fluorescence		3D7	3.4 µM
CC(=O)O[C@H]1CC2C(C3CC[C@H](C(C)CCCN(CCCNc4ccnc5cc(Cl)ccc45)CCCC(C)[C@H]4CCC5C6C(C[C@H](OC(C)=O)[C@@]54C)[C@@]4(C)CC[C@@H](NC(=O)OC(C)(C)C)C[C@H]4C[C@H]6OC(C)=O)[C@]31C)[C@H](OC(C)=O)C[C@@H]1C[C@H](NC(=O)OC(C)(C)C)CC[C@]21C	SYBR Green		D6	0.369 µM
CC1(C)C2CC=C3C(CC[C@@]4(C)C5C[C@](C)(C(=O)O)CC[C@]5(C)CC[C@]34C)[C@@]2(C)CC[C@H]1O	SYBR Green	CQ-resistant	FCM29	16.4 µM
CCc1ccc(Nc2nc(NCCCNc3ccnc4cc(Cl)ccc34)nc(N3CCOCC3)n2)cc1			D6	0.4 µM
CN(CCCNc1ccnc2cc(Cl)ccc12)Cc1cc(=O)c(O)cn1C	radiometric		3D7	0.04 µM
CCCCN1C(=O)c2ccccc2NC1c1ccc(F)cc1	luciferase		3D7	>20 µM
COc1cc(OC)c(OC)cc1/C=C/C=C/C(=O)c1ccc(Cl)c(Cl)c1	SYBR Green / fluorescence		INDO	53 µM
CC(=O)c1cccc(C2(O)C(N)=Nc3ccc(Cl)cc32)c1			Dd2	1.525 µM
Clc1cccc(CC[C@H]2C[C@H]3CC[C@H]4C[C@@H](CCc5cccc(Cl)c5)NC(=N2)N34)c1	LDH		D6	6.34 µM
Cc1[nH]nc2c1C(c1cc(C#N)cc(-c3ccnn3C)c1)(C1CCC1)C(C#N)=C(N)O2	radiometric		NF54	1.09 µM
COc1cc(OC)c(OC)cc1/C=C/C=C/C(=O)c1ccc(Cl)cc1	SYBR Green / fluorescence		INDO	31.5 µM
C=CCOc1ccc(/C=C/C(=O)c2ccc(Nc3ccnc4cc(Cl)ccc34)cc2)cc1OC	SYBR Green		3D7	75 µM
CCN(CC)CCCC(C)Nc1ccnc2cc(Cl)ccc12	hypoxanthine uptake / radiometric		D6	0.017 µM
N=C(N)c1ccc(NCCNc2ccc(C(=N)N)cc2N)c(N)c1	hypoxanthine uptake		W2	>1 µM
CCCCN1C(=O)c2ccccc2NC1c1ccc(OC)cc1	luciferase		3D7	>20 µM
COc1ccc2c(c1OC)C(=O)c1ccc(C)cc1C2=O			3D7	1.1 µM
COc1ccc(C(=O)/C=C/c2cccc3ccccc23)cc1	SYBR Green / fluorescence		3D7	16.5 µM
CCN(CC)CCCC(C)Nc1ccnc2cc(Cl)ccc12	SYBR Green			0.3 µM
CCCC[C@@H]1C[C@@H]2CC[C@@H]3C[C@H](CCCC)NC(=N1)N32	LDH		D6	6.49 µM
C[C@H]1Cc2c([nH]c3cc(F)c(F)cc23)[C@@]2(N1)C(=O)Nc1ccc(Cl)cc12	SYBR Green / fluorescence	GNF-Pf4492-resistant I203L/P990R	GNF-Pf4492R-2	0.00302 µM
O=c1cc(CNCCCCNc2ccnc3cc(Cl)ccc23)n(C2CC2)cc1O	radiometric		K1	0.36 µM
CCN1C(=NCc2cccc(Cl)c2)N[C@H](c2cccc(C(F)(F)F)c2)C(C(=O)OC)=C1C	SYBR Green / fluorescence		7G8	9.5 µM
C[C@@H]1CC[C@]2(C=O)CC[C@]3(C)C(=CCC4[C@@]5(C)C[C@H](O)[C@H](O)C(C)(C)C5CC[C@]43C)C2[C@]1(C)O	hypoxanthine uptake / radiometric		W2 Mef	1.86 µM
CCN(CC)CCNC(=O)c1sc(-c2cccnc2)nc1-c1ccccc1			3D7	>19.3 µg/mL
Cc1[nH]nc2c1C(c1cc(C#N)cc(N3CCN(C(=O)OCc4ccccc4)CC3)c1)(C(C)C)C(C#N)=C(N)O2	radiometric		NF54	0.25 µM
COc1cc2c(cc1OC)[C@H]1O[C@](CCCCN3C(=O)c4ccccc4C3=O)(C2)OC2=C1C(=O)CC(C)(C)C2	SYBR Green / fluorescence		CP250	8.7 µM
N=C(N)c1ccc(NCCCNc2ccc(C(=N)N)cc2)cc1	hypoxanthine uptake		W2	0.076 µM
NC1=Nc2ccc(Cl)cc2C1(O)C#Cc1ccccc1			Dd2	1.127 µM
COc1cc2c(cc1/C=C/C(=O)c1ccc3c(c1)OCO3)C1CC[C@@]3(C)C(CC[C@@H]3O)C1CC2	LDH		NF54	24.31 µM
CCN(CC)CCN1C(=O)c2ccccc2NC1c1cccc(F)c1	luciferase		3D7	>10 µM
O=c1cc(CNCCCCCCNc2ccnc3cc(Cl)ccc23)n(C2CC2)cc1Oc1ccccc1	radiometric		3D7	0.004 µM
CCN(CC)CCNC(=O)c1sc(-c2ccccc2)nc1-c1ccccc1			3D7	>19.3 µg/mL
N=C(N)c1ccc(NCCCCCCNc2ccc(C(=N)N)cc2)cc1	hypoxanthine uptake		D6	0.036 µM
COc1ccc(C2(O)C(N)=Nc3ccc(F)cc32)cc1			3D7	0.085 µM
Cn1cc(O)c(=O)cc1CNCCNc1ccnc2cc(Cl)ccc12	radiometric		K1	1.75 µM
C=CCOc1ccc(/C=C/C(=O)c2c(O)c3ccccc3oc2=O)cc1OC	SYBR Green		3D7	>100 µM
CCOC(=O)C1=C(O)/C(=C\c2cc(C)n(C3CCN(Cc4ccccn4)CC3)c2C)N=C1C		Chloroquine/pyrimethamine-resistant	K1	0.38 µM
COCc1c(O)cc2c(c1O)C(=O)c1ccccc1C2=O			3D7	2.1 µM
Cc1c(O)c2ccccc2c2c1sc(NC1CCCCC1)[n+]2CCCN1CCN(C)CC1	hypoxanthine uptake		D10	0.16 µM
O=C1c2ccccc2NC(c2ccc(Br)cc2)N1c1ccco1	luciferase		3D7	>20 µM
COc1cc2c(cc1/C=C/C(=O)c1ccc(Cl)cc1Cl)C1CC[C@@]3(C)C(CC[C@@H]3OC(C)=O)C1CC2	LDH		NF54	4.31 µM
Cn1nc(C(F)(F)F)c(-c2ccc(Br)cc2)c1NC(=O)Nc1ccc(F)cc1F	SYBR Green / fluorescence	KAE678-resistant (G223R)	KAE678R-1	1.41 µM
COc1cc2c(NC3CCN(C)CC3)nc(N3CCCN(C)CC3)nc2cc1OCc1ccccc1	fluorescence		3D7	0.1 µM
CCN(CC)CCCC(C)Nc1ccnc2cc(Cl)ccc12	LDH / absorbance		D10	0.00549 µM
COC(=O)c1cccc(C2(O)C(N)=Nc3ccc(Cl)cc32)c1			Dd2	1.578 µM
N=C(N)c1ccc(OCCCOc2ccc(C(=N)N)cc2)cc1	hypoxanthine uptake		D6	0.038 µM
CCCCN1C(=O)c2ccccc2NC1c1ccc(OC)c(COc2ccc(F)cc2)c1	luciferase		3D7	>20 µM
Cc1cc2c(cc1O)C(=O)c1ccccc1C2=O			3D7	0.34 µM
Clc1ccc2c(NCCCCNc3nc(Nc4ccccc4)nc(N4CCOCC4)n3)ccnc2c1			W2	0.25 µM
CCCCCCCCCCCCc1cccc(C2(O)NC(=O)c3cnccc32)c1	broth dilution / radiometric			>2500 µM
Cc1[nH]nc2c1C(c1cc(C#N)cc(-c3ccc(C(=O)NCCCN4CCN(C)CC4)s3)c1)(C(C)C)C(C#N)=C(N)O2	radiometric		K1	1.19 µM
CN(Cc1ccc(Cl)cc1)Cc1ccc(CNc2ccnc3cc(Cl)ccc23)cc1			D10	>1 µM
C[C@H]1Cc2c([nH]c3cc(Cl)c(F)cc23)[C@@]2(N1)C(=O)Nc1ccc(Cl)cc12	SYBR Green / fluorescence	KAE609-resistant (D1247Y)	KAE609R-3	0.00412 µM
CN(Cc1ccccc1)Cc1ccc(CNc2ccnc3cc(Cl)ccc23)cc1			K1	0.026 µM
Fc1ccc(Nc2nc(NCCCNc3ccnc4cc(Cl)ccc34)nc(N3CCOCC3)n2)cc1			D6	0.43 µM
NCCCCNc1ccnc2cc(Cl)ccc12	LDH		D10	2.15 µM